Pooled drug test results. Numbers come from NIAID ChemDB, via PubChem.

Common to all: growth or infection tests; agent: Mycobacterium tuberculosis

MIC50, MIC90 and the like: level of inhibition, or share of isolates inhibited. Inhibition is in % at the dose shown (toxicity tests: loss of growth or viability). a–b is a range or a potency band. MIC bound comes from a single tested concentration. Blank or dashed fields: not listed here. Lines come from different laboratories, so protocols vary.

compound | endpoint | tested at | strain | method | setting | result
CO[C@H]1/C=C/O[C@@]2(C)Oc3c(C)c(O)c4c(O)c(c(/C=N/N5CCN6CCCCC6C5)c(O)c4c3C2=O)NC(=O)/C(C)=C\C=C\[C@H](C)[C@H](O)[C@@H](C)[C@@H](O)[C@@H](C)[C@H](OC(C)=O)[C@@H]1C | MIC | - | 23 strains (rifampicin-susceptible) | - | - | ≤0.16 µg/mL
CC1=C(Br)C(=O)C(C(C)C)=CC1=O | MIC bound | - | H37Rv | BACTEC | - | ≤128 µg/mL
Fc1ccc2nc(CCc3cc(Cl)cc(Cl)c3)[nH]c2c1 | MIC | - | Isolate 192 | broth dilution | - | >100 µg/mL
CN(C)c1ccc(O)c2c1C[C@H]1C[C@H]3[C@H](N(C)C)C(=O)C(C(N)=O)=C(O)[C@@]3(O)C(=O)C1=C2O | MBC | - | - | - | - | 64 µg/mL
CN(C)c1ccc(O)c2c1C[C@H]1C[C@H]3[C@H](N(C)C)C(=O)C(C(N)=O)=C(O)[C@@]3(O)C(=O)C1=C2O | MIC50 | - | 19 strains | - | - | >25 µg/mL
Nc1nc(F)c(F)c2c1ncn2[C@@H]1O[C@H](CO)[C@@H](O)[C@H]1O | MIC | - | SRICK1 | - | - | >100 µg/mL
NNC(=O)c1ccncc1 | MIC | - | H37Rv | resazurin | - | 22.3 µM
Nc1ncc(F)c2c1ncn2[C@@H]1O[C@H](CO)[C@@H](O)[C@H]1O | MIC | - | SRICK1 | - | - | >100 µg/mL
COc1ccc2cc1Oc1cc(ccc1OCC=C(C)C)CCC(=O)CCCC2 | MIC | - | H37Rv | broth dilution | - | >200 µg/mL
Cc1ccc(OCc2cn(-c3ccc(OC[C@@]4(C)Cn5cc([N+](=O)[O-])nc5O4)cc3)nn2)cc1 | MIC | - | H37Rv | broth dilution / resazurin | - | 0.54 µM
NNC(=O)c1ccncc1 | MIC | - | ATCC 27294 | - | - | 0.031 µg/mL
Cc1ccc(-n2cc(CSC3c4ccccc4-c4ccccc43)nn2)cc1 | MIC99 | - | Specimen 192 | broth dilution | - | 135 µM
CC1CCCCN1c1cncc(C(N)=S)n1 | MIC | - | Capreomycin-resistant | - | - | 62.5 µg/mL
CN[C@H](CC(C)C)C(=O)N[C@H]1C(=O)N[C@@H](CC(N)=O)C(=O)N[C@H]2C(=O)N[C@H]3C(=O)N[C@H](C(=O)N[C@H](C(=O)O)c4cc(O)cc(O)c4-c4cc3ccc4O)[C@H](O)c3ccc(c(Cl)c3)Oc3cc2cc(c3O[C@@H]2O[C@H](CO)[C@@H](O)[C@H](O)[C@H]2O[C@H]2C[C@](C)(N)[C@H](O)[C@H](C)O2)Oc2ccc(cc2Cl)[C@H]1O | MIC | - | H37Rv | broth dilution | - | 0.032–0.064 µg/mL
O=C(O)CN1CSC(=S)N(CC(=O)O)C1 | MIC bound | - | H37Rv | BACTEC | - | >12.5 µg/mL
Nc1c(NC(=O)CCc2ccccc2)cc(Cl)cc1[N+](=O)[O-] | MIC | - | H37Rv | broth dilution | - | >100 µg/mL
NC(=S)c1cncc(-n2cncn2)n1 | MIC | - | Capreomycin-resistant | - | - | 125 µg/mL
C=CCSc1ccc(C(=S)NC)cc1 | MIC | - | H37Rv | - | - | >268 µM
CN[C@@H]1[C@H](O[C@H]2[C@H](O[C@H]3[C@H](O)[C@@H](O)[C@H](N=C(N)N)[C@@H](O)[C@@H]3N=C(N)N)O[C@@H](C)[C@]2(O)C=O)O[C@@H](CO)[C@H](O)[C@H]1O | MBC | - | - | - | - | 8 µg/mL
Nc1nc(F)cc2c1ncn2[C@@H]1O[C@H](CO)[C@@H](O)[C@H]1O | MIC | - | SRICK1::ADOK | - | - | 1–10 µg/mL
O=C(NCO)NC1NC(=O)NC1=O | inhibition | 12.5 µg/mL | H37Rv | BACTEC | - | 10%
CCCCc1nc(Cl)c(/C=N/NC(N)=S)n1CCCN1CCN(Cc2ccccc2)CC1 | MIC | - | H37Rv | agar | - | 50 µg/mL
CCC(C)Sc1ccc(C(N)=S)cc1 | MIC | - | H37Rv | - | - | 311 µM
CCN=c1cc2n(-c3ccc(C(F)(F)F)cc3)c3ccccc3nc-2cc1Nc1ccc(C(F)(F)F)cc1 | MIC | - | 29 | - | multidrug-resistant | ≤0.06 µg/mL
O=C(/C=C/c1ccccc1)NNC(=O)c1ccncc1 | MIC | - | H37Rv | resazurin | - | 31.3 µM
CC1CN(c2cc3c(cc2F)c(=O)c(C(=O)O)cn3-c2ccc(F)cc2F)CCN1 | MIC | - | H37Rv | - | - | 4 µg/mL
CC1CCc2c(-n3ccnc3)c(F)cc3c(=O)c(C(=O)O)cn1c23 | MIC90 | - | 100 strains | - | - | >25 µg/mL
CCn1cc(C(=O)O)c(=O)c2cc(F)c(N3CCN(C)CC3)cc21 | MIC | - | H37Rv | - | - | 8 µg/mL
CO[C@H]1/C=C/O[C@@]2(C)Oc3c(C)c(O)c4c(O)c(c5c(c4c3C2=O)NC2(CCN(CC(C)C)CC2)N=5)=NC(=O)/C(C)=C\C=C\[C@H](C)[C@H](O)[C@@H](C)[C@@H](O)[C@@H](C)[C@H](OC(C)=O)[C@@H]1C | MIC | - | 23 strains (rifampicin-susceptible) | - | - | ≤0.08 µg/mL
CC(C)c1ccc(OCc2cn(-c3ccc(OC[C@@]4(C)Cn5cc([N+](=O)[O-])nc5O4)cc3)nn2)cc1 | MIC | - | H37Rv | broth dilution / resazurin | - | 1.02 µM
O=[N+]([O-])c1cc(Cl)cc2[nH]c(CCc3ccccc3)nc12 | MIC | - | Isolate 192 | broth dilution | - | >100 µg/mL
CC[C@H]1OC(=O)[C@H](C)[C@@H](O[C@H]2C[C@@](C)(OC)[C@@H](O)[C@H](C)O2)[C@H](C)[C@@H](O[C@@H]2O[C@H](C)C[C@H](N(C)C)[C@H]2O)[C@](C)(O)C[C@@H](C)C(=O)[C@H](C)[C@@H](O)[C@]1(C)O | MIC90 | - | 23 strains | - | - | >25 µg/mL
NC1CCN(c2nc3c(cc2F)c(=O)c(C(=O)O)cn3-c2ccc(F)cc2F)C1 | MIC | - | H37Rv | - | - | 16 µg/mL
CSC(=S)N/N=C/c1nccc(-c2ccccc2)c1C | MIC bound | - | H37Rv | BACTEC | - | ≤128 µg/mL
CC(=O)NC[C@H]1CN(c2ccc(-c3ccc(-c4nnnn4C)nc3)c(F)c2)C(=O)O1 | MIC90 | - | 67 clinical isolates | - | - | 0.125 µg/mL
CC1(C)C2CCC(=O)OC1CC2 | MIC bound | - | H37Rv | BACTEC | - | >12.5 µg/mL
N#Cc1cncc(-n2cncn2)n1 | MIC | - | Isoniazid-resistant | - | - | 250 µg/mL
Cc1ccc(S(=O)(=O)NC(=O)NC(=S)c2cccs2)cc1 | inhibition | 6.25 µg/mL | H37Rv | resazurin | - | -22%
COc1cc(/C=C/C(=O)NNC(=O)c2ccncc2O)cc(OC)c1O | MIC | - | H37Rv | resazurin | - | 26.8 µM
O=[N+]([O-])c1ccccc1-n1cc(CS(=O)(=O)C2c3ccccc3-c3ccccc32)nn1 | MIC99 | - | Specimen 192 | broth dilution | - | >231 µM
C/C(=C1/N=C(c2cc([N+](=O)[O-])ccc2Cl)N(c2ccc(Br)cc2)C1=O)c1cc2ccccc2oc1=O | inhibition | 12.5 µg/mL | H37Rv | BACTEC | - | 56%
Fc1ccc(-n2cc(CSC3c4ccccc4-c4ccccc43)nn2)cc1 | MIC99 | - | Specimen 192 | broth dilution | - | 66.94 µM
CC1CCCCN1c1cncc(C(=O)NO)n1 | MIC | - | Isoniazid-resistant | - | - | 62.5 µg/mL
C[C@]1(COc2ccc(-c3cc(COc4cccc(F)c4)on3)cc2)Cn2cc([N+](=O)[O-])nc2O1 | MIC | - | ss18b non-replicating phase | broth dilution / resazurin | - | 34.32 µM
Fc1ccccc1-n1cc(CNC2c3ccccc3-c3ccccc32)nn1 | MIC99 | - | Specimen 192 | broth dilution | - | 281 µM
CCCCc1nc(Cl)c(/C=N/NC(N)=S)n1CCCN1CCN(CCc2ccccc2)CC1 | MIC | - | H37Rv | agar | - | 6.25 µg/mL
COc1ccc2[nH]c(=O)c(CO)c(CO)c2c1 | MIC bound | - | H37Rv | BACTEC | - | >12.5 µg/mL
CCNC(=S)c1ccc(SC)cc1 | MIC | - | H37Rv | - | - | >378 µM
COc1cnccc1C(=O)NNC(=O)/C=C/c1ccc(O)cc1 | MIC | - | H37Rv | resazurin | - | 29.2 µM
Cc1ccc(N2C(=O)C(C)SC2=S)cc1Cl | inhibition | 12.5 µg/mL | H37Rv | BACTEC | - | -5%
CO[C@H]1/C=C/O[C@@]2(C)Oc3c(C)c(O)c4c(O)c(c(N5CCN(Cc6c(C)cc(C)cc6C)CC5)c(O)c4c3C2=O)NC(=O)/C(C)=C\C=C\[C@H](C)[C@H](O)[C@@H](C)[C@@H](O)[C@@H](C)[C@H](OC(C)=O)[C@@H]1C | MIC | - | 23 strains (rifampicin-susceptible) | - | - | ≤0.08 µg/mL
NC1CCN(c2c(F)cc3c(=O)c(C(=O)O)cn(C4CC4)c3c2Cl)C1 | MIC | - | H37Rv | - | - | 0.5 µg/mL
CCCC(C)Sc1ccc(C(=S)NCC)cc1 | MIC | - | H37Rv | - | - | >300 µM
COc1ccc2cc1Oc1cc(ccc1OC)CCC(NCCN1CCOCC1)CCCC2 | MIC | - | H37Rv | broth dilution | - | 200 µg/mL
O=S(=O)(Cc1cn(-c2ccc(Cl)cc2Cl)nn1)C1c2ccccc2-c2ccccc21 | MIC99 | - | Specimen 192 | broth dilution | - | >219 µM
CCCCc1nc(Cl)c(/C=N/NC(N)=S)n1CCCN1CCN(Cc2ccc(F)cc2)CC1 | MIC | - | H37Rv | agar | - | 50 µg/mL
N=C1C(=O)NC(=O)C1c1ccccc1 | inhibition | 12.5 µg/mL | H37Rv | BACTEC | - | 11%
CCCCCCNC1CCCCc2ccc(OC)c(c2)Oc2cc(ccc2OC)CC1 | MIC | - | H37Rv | broth dilution | - | 25 µg/mL
O=C(O)c1cccc2c1C(=O)c1cccc3snc-2c13 | MIC bound | - | H37Rv | BACTEC | - | >12.5 µg/mL
CCCCc1nc(Cl)c(/C=N/NC(N)=S)n1CCCN1CCN(c2ccccc2OC)CC1 | MIC | - | H37Rv | agar | - | 3.13 µg/mL
Nc1ccc2cc3[nH]c4cc(N)ccc4c3nc2c1 | MIC | - | H37Rv | resazurin | - | 3.13 µg/mL
CSc1ccc(/C=C/C(N)=S)cc1 | MIC | - | H37Rv | - | - | 191 µM
COC(=O)C(CO)NC(=O)C(CC(C)C)NC(=O)C(CC(C)C)NC(=O)OCc1ccccc1 | MIC bound | - | H37Rv | BACTEC | - | >12.8 µg/mL
CC1CCc2cc(F)cc3c(=O)c(C(=O)O)cn1c23 | MIC | - | H37Rv | - | - | 64 µg/mL
C[C@]1(COc2ccc(-c3cc(-c4ccc(F)cc4)on3)cc2)Cn2cc([N+](=O)[O-])nc2O1 | MIC | - | H37Rv | broth dilution / resazurin | - | 2.29 µM
CCOC(=O)c1cc(=O)[nH]c(N)n1 | inhibition | 12.5 µg/mL | H37Rv | BACTEC | - | 0%
Fc1ccc(-n2cc(CNC3c4ccccc4-c4ccccc43)nn2)cc1Cl | MIC99 | - | Specimen 192 | broth dilution | - | >256 µM
CC1=C/N\C(C#N)=C(C#N)/N=C/C(C)=C\N\C(C#N)=C(C#N)/N=C\1 | MIC bound | - | H37Rv | resazurin | - | >6.25 µg/mL
C[C@H]1COc2c(N3CCN(C)CC3)c(F)cc3c(=O)c(C(=O)O)cn1c23 | MIC90 | - | 18 strains | - | - | 1 µg/mL
O=[N+]([O-])c1cc(Cl)cc2[nH]c(CCc3cc(Cl)cc(Cl)c3)nc12 | MIC | - | Isolate 192 | broth dilution | - | >100 µg/mL
CCC(C)Sc1ccc(C(=S)NC)cc1 | MIC | - | H37Rv | - | - | 334 µM
COc1cccc2c1C(=O)c1c(O)c3c(c(O)c1C2=O)C[C@@](O)(/C(C)=N/NC(=O)c1cccc([N+](=O)[O-])c1)C[C@H]3O[C@H]1CC(N)[C@H](O)[C@H](C)O1 | MIC | - | H37Rv | - | - | 12.5 µg/mL
COc1ccc2cc1Oc1cc(ccc1OC)CCC(NC1CCCCC1)CCCC2 | MIC | - | H37Rv | broth dilution | - | 50 µg/mL
CC(=O)C(N=NC1CCC(S(=O)(=O)NB2N=CS2)CC1)C(=O)Nc1ccccc1C | MIC bound | - | H37Rv | BACTEC | - | >12.5 µg/mL
C[C@]1(COc2ccc(-n3cc(COc4ccc(C(F)(F)F)cc4)nn3)cc2)Cn2cc([N+](=O)[O-])nc2O1 | MIC | - | ss18b non-replicating phase | broth dilution / resazurin | - | 7.76 µM
Cc1ccc(NC(=S)NC(=O)c2ccco2)cc1Cl | inhibition | 12.5 µg/mL | H37Rv | BACTEC | - | 55%
CCCCc1nc(Cl)c(/C=N/NC(N)=S)n1CCCN1CCN(c2ccccc2F)CC1 | MIC | - | H37Rv | agar | - | 25 µg/mL
Cl.Cl.O=C(Nc1ccc(C2=NCCN2)cc1)c1cccc(NC(=S)Nc2ccc(C3=NCCN3)cc2)c1 | MIC | - | H37Rv | BACTEC | - | >12.5 µg/mL
CSc1ccc(C(N)=S)cc1 | MIC | - | H37Rv | - | - | 328 µM
O=[n+]1c2c(n([O-])c3ccccc31)-c1cccc3cccc-2c13 | MIC bound | - | H37Rv | resazurin | - | >6.25 µg/mL
CCSc1ccc(C(=S)NC)cc1 | MIC | - | H37Rv | - | - | >378 µM

For reference, 8 entries again:

compound,endpoint,tested at,strain,method,setting,result
NNC(=O)c1ccncc1,MIC,-,H37Rv,resazurin,-,22.3 µM
CO[C@H]1/C=C/O[C@@]2(C)Oc3c(C)c(O)c4c(O)c(c5c(c4c3C2=O)NC2(CCN(CC(C)C)CC2)N=5)=NC(=O)/C(C)=C\C=C\[C@H](C)[C@H](O)[C@@H](C)[C@@H](O)[C@@H](C)[C@H](OC(C)=O)[C@@H]1C,MIC,-,23 strains (rifampicin-susceptible),-,-,≤0.08 µg/mL
Nc1c(NC(=O)CCc2ccccc2)cc(Cl)cc1[N+](=O)[O-],MIC,-,H37Rv,broth dilution,-,>100 µg/mL
CC1CN(c2cc3c(cc2F)c(=O)c(C(=O)O)cn3-c2ccc(F)cc2F)CCN1,MIC,-,H37Rv,-,-,4 µg/mL
CC(C)c1ccc(OCc2cn(-c3ccc(OC[C@@]4(C)Cn5cc([N+](=O)[O-])nc5O4)cc3)nn2)cc1,MIC,-,H37Rv,broth dilution / resazurin,-,1.02 µM
CC1CCCCN1c1cncc(C(=O)NO)n1,MIC,-,Isoniazid-resistant,-,-,62.5 µg/mL
CC1CCc2cc(F)cc3c(=O)c(C(=O)O)cn1c23,MIC,-,H37Rv,-,-,64 µg/mL
Cc1ccc(N2C(=O)C(C)SC2=S)cc1Cl,inhibition,12.5 µg/mL,H37Rv,BACTEC,-,-5%